# Laboratory results: publication PMC11106956, “Population pharmacokinetics of primaquine and its metabolites in African males” (Malaria Journal, 2024)
# Conditions: plasma; single oral PQ 0.40-0.50 mg/kg
substance,measurement,value
Primaquine carbamoyl-glucuronide,"CF, proportional conversion factor between capillary and venous drug measurements, population estimate (%RSE)",40.1 (6.97%)
